Measured values: paper PMC12133982 (2025)

Assays:
HLA-B5801 = HLA-B5801 (Homo sapiens, UniProt P01889, A329T/C349S/D201E/D98Y/E176V/E187L/E204Q/E69T/G107R/I218V/I90N/K202T/L105A/L119I/N104I/N87E/Q89R/Q94S/R106L/R155S/R180L/R86G/S101N/S121R/S35A/S48A/T118I/V127L/V306I/V36M/Y140S/Y91M); assay: cell-based; settings: Binding affinity with HLA-B5801, HMy2.CIR-B5801 cells, reference Cy5-[…], class from inhibition at 5 and 15 μM, flow cytometry MFI
HLA-B1501 = HLA-B1501 (Homo sapiens, UniProt P01889, A329T/A93T/A95T/C349S/D201E/D98Y/E187L/E204Q/E69M/E70A/K202T/N87E/Q94N/R155S/R180W/S121R/S35A/S48A/V306I/V36M/Y140S/Y91S); assay: cell-based
HLA-B3501 = HLA-B3501 (Homo sapiens, UniProt P01889, A329T/A93T/A95T/C349S/D201E/D98Y/E176V/E187L/E204Q/E69T/I218V/K202T/L119I/Q94N/R155S/R180L/S121R/S35A/S48A/T118I/V127L/V306I/V36M/Y140S/Y91F); assay: cell-based
HLA-B1301 = HLA-B1301 (Homo sapiens, UniProt P01889, A65T/A93T/A95T/D138N/D201E/D98Y/E176V/E204Q/E69M/E70A/G107R/K202T/L105A/L119I/N104T/N87E/Q94N/R106L/R155S/R169L/R180L/S101N/S121R/S35A/S48T/T118I/V127L/V36M/Y140L/Y91S); assay: Competitive peptide binding assay, CIR-B1301

Measured: IC50

CC[C@H](C)[C@H](NC(=O)[C@H](CCC(=O)O)NC(=O)[C@@H](N)CCCCN)C(=O)N[C@@H](CC(=O)O)C(=O)N[C@@H](CCCNC(=N)N)C(=O)N[C@@H](CC(C)C)C(=O)N[C@@H](CC(N)=O)C(=O)N[C@@H](CCC(=O)O)C(=O)N[C@H](C(=O)O)C(C)C [Epitope Y119]
> 15 µM: HLA-B5801 | HLA-B1501 | HLA-B3501 | HLA-B1301
